# Reference: ChEMBL document CHEMBL3046626, “Antifungal chalcones and new caffeic acid esters from Zuccagnia punctata acting against soybean infecting fungi” (2004)
# Test system: Fusarium graminearum
# Experiment: Antifungal activity against Fusarium graminearum isolate CE169 after 48 to 72 hr
# Assay type: functional
compound,measurement,value
COC(=O)Nc1nc2ccccc2[nH]1 [CARBENDAZIM],MIC,1 µg/mL
